Laboratory results from US20040053872A1, “New sequences” (priority 2000, published 2004).

What was measured:
[1] = target: T1, recombinant HIV-1 RT L100I (Human immunodeficiency virus type 1 group M subtype B, UniProt P03366, L699I); conditions: immobilised primer/template, binding 90 min at 33° C., read-out: Inhibition of binding to template/primer (BIC50)
T1 construct: performed by recombinant HIV-1 RT:s with defined
Experimental: (§1) (iii) Protocol for RT binding inhibition (BIC) assay: The study was performed in a modified DNA polymerase assay. The inhibitors were serially diluted in five steps, enzyme dilution was added and the enzyme/inhibitor mixtures were incubated for 30 minutes at 33° C. Aliquots of the enzyme/inhibitor mixture were transferred to each well of a microtiter plate containing either immobilised primer, or primer/template. The enzyme was allowed to bind to the immobilised polymer for 90 min at 33° C. The amount of RT used was standardised to an activity corresponding to 40-60 pg (3.3-5.0×10^−16 mol) reference HIV-1 RT per well. The plates were then washed to remove unbound enzyme whereupon the amount of bound enzyme was determined by addition of the appropriate reaction solution for polymerisation (i e a reaction solution devoid of primer for studies of primer binding and a reaction solution devoid of both primer and template for studies of binding to primed template). The polymerase reaction was allowed to proceed for 3 hours at 33° C., whereupon the reaction was terminated by a wash of the plate.
(§2) The capacity of the indicated substances to inhibit the binding to primer or to primed DNA template of a panel of recombinant HIV 1 subtype B RTs was studied according to “Protocol for RT binding inhibition (BIC) assay” (protocol (iii) above).

[2] = target: T2, recombinant HIV-1 RT K103N/E478Q (Human immunodeficiency virus type 1 group M subtype B, UniProt P03366, E1077Q/K702N); conditions: immobilised primer/template, binding 90 min at 33° C., read-out: Inhibition of binding to template/primer (BIC50)
T2 construct: performed by recombinant HIV-1 RT:s with defined
Experimental: as §1, §2

substance 199: 35-mer RNA molecule having the sequence set out in SEQ ID NO:5; similar to SEQ ID NO:4 with some naturally occurring nucleotide derivatives (GCUCAGNCGGNAGAGCANCAGACUUUUAANCUGAN; RNA, backbone, methylation of C and the base at N not given here; naturally occurring modified nucleosides at n positions)
IC50 [1]: 16 nM
IC50 [2]: 16 nM
